PubChem BioAssay AID504761 | Drosophila RNAi Screening Center | 2011
Purpose: 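Fly genes whose silencing reduces dengue virus type 2 infection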 (primary screen). System: D.Mel-2 cells from Drosophila. Knock-down reagent: long dsRNA against Drosophila genes. Conditions: infection with dengue virus type 2; dose and infection time not stated. Detection: 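Per well on two replicate plates, imaging gave the percent of cells positive for viral envelope protein, ranked by infection, and a nuclear count of cells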. Scale: infection score: higher = more virus-infected cells; cell count: higher = more cells in the well. Active means: 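Very low infection ranking in both replicate wells (chance probability at most 0.065), then a retest showing infection dropped 1.5-fold or more at p below 0.05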. Calls: active = confirmed: knock-down lowers infection; inactive = not picked or not confirmed.
The deposit covers about 22,000 reagents; below is a random part of those with a known target gene and a result. Over the whole deposit, 116 (0.52%) got an active call. 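Calls depend on retest data that are not deposited; infection was ranked per plate without normalising between plates; the unit of the infection score is not given.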 Raw values vary from plate to plate and are shown uncorrected. Entries without a mark were called inactive. Further read-outs or replicates are left out here. The record does not give: the amount of reagent, the time to read-out.

Bin1 [DRSC16843]: infection score, replicate 1 = 6.85; cell count, replicate 1 = 6454
CG13461 [DRSC10008]: infection score, replicate 1 = 1.71; cell count, replicate 1 = 5903
CG13461 [DRSC24462]: infection score, replicate 1 = 4.77; cell count, replicate 1 = 6461
CG17385 [DRSC06664]: infection score, replicate 1 = 8.91; cell count, replicate 1 = 6895
CG17385 [DRSC26999]: infection score, replicate 1 = 7.38; cell count, replicate 1 = 6625
CG7974 [DRSC08607]: infection score, replicate 1 = 14.3; cell count, replicate 1 = 5260
CG7974 [DRSC26643]: infection score, replicate 1 = 3.58; cell count, replicate 1 = 6166
GAPcenA [DRSC10771]: infection score, replicate 1 = 2.23; cell count, replicate 1 = 6144
CG32767 [DRSC18386]: infection score, replicate 1 = 1.32; cell count, replicate 1 = 6042
CG32767 [DRSC23721]: infection score, replicate 1 = 8.96; cell count, replicate 1 = 6036
CG15534 [DRSC15070]: infection score, replicate 1 = 5.43; cell count, replicate 1 = 1325
CG15534 [DRSC26433]: infection score, replicate 1 = 2.98; cell count, replicate 1 = 5977

Looked up above.
Bin1 [DRSC16843], cell count, replicate 1: 6454
Under “cell count, replicate 1”, CG17385 [DRSC06664] has 6895
